Results deposited as PubChem BioAssay AID624099 (ICCB-Longwood, 2012)

- Screen: 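Human genes that papillomavirus E2 requires to repress the HPV18 LCR promoter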 (primary screen)
- Cells: human C33A cervical carcinoma cells (HPV-negative) stably expressing BPV1 E2 and an HPV18 LCR luciferase reporter
- Knock-down reagent: siRNA pool against human genes, 40 nM
- Timing: 72 h
- Read-out: 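HPV18 LCR reporter light per well, converted to plate-wise z-scores that exclude control wells, and averaged over triplicate plates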
- Scale: mean z-score and z-score: higher = stronger reporter signal, weaker E2 silencing
- Call rule: 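Hit if mean z-score reaches 2 and two or more of three replicate z-scores also reach 2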
The whole screen tested about 21,000 reagents; this is an unselected part. 497 of all reagents (2.4%) were called active. 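Higher z means weaker E2 silencing; only reporter increases were scored, and knock-downs that hurt cell survival may mask genuine repressor factors.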 The numbers tell different reagents against one gene apart.

gene symbol,reagent,mean z-score,"z-score, replicate A","z-score, replicate B","z-score, replicate C",outcome
ZNF664 (zinc finger protein 664),1,0.11,0.67,-0.08,-0.26,inactive
PRKCSH (PRKCSH beta subunit of glucosidase II),1,-0.35,-0.44,-0.37,-0.23,inactive
LOC150371 (retired record),1,0.19,0.29,0.34,-0.07,inactive
TP53RK (TP53 regulating kinase),1,0.13,0.18,0,0.22,inactive
MVD (mevalonate diphosphate decarboxylase),1,0.6,0.54,0.55,0.7,inactive
CCL21 (C-C motif chemokine ligand 21),1,-0.23,-0.12,-0.35,-0.22,inactive
DYNLT4 (dynein light chain Tctex-type 4),1,1.04,1.29,1.04,0.79,inactive
CFAP70 (cilia and flagella associated protein 70),1,0.63,0.7,0.52,0.68,inactive
CNBD1 (cyclic nucleotide binding domain containing 1),1,-1.22,-1.5,-1,-1.17,inactive
MIDN (midnolin),1,-1.19,-1.41,-0.79,-1.38,inactive
DAZAP2 (DAZ associated protein 2),1,0.35,0.56,0.4,0.09,inactive
TMEM168 (transmembrane protein 168),1,-0.74,-0.78,-0.81,-0.64,inactive
POMP (proteasome maturation protein),1,-0.78,0.09,-0.31,-2.12,inactive
KLF2 (KLF transcription factor 2),1,-0.3,-0.44,-0.27,-0.18,inactive
ECT2L (epithelial cell transforming 2 like),1,-0.09,-0.04,-0.12,-0.11,inactive
LINC02481 (long independently transcribed non-coding RNA 2481),1,-0.18,-0.05,-0.52,0.04,inactive
FAM230C (family with sequence similarity 230 member C),1,1.8,1.81,1.63,1.98,inactive
AGRP (agouti related neuropeptide),1,-0.08,0.08,-0.01,-0.31,inactive
SNAPC3 (small nuclear RNA activating complex polypeptide 3),1,0.43,0.42,-0.13,1,inactive
KLHL18 (kelch like family member 18),1,-0.93,-1.48,-0.63,-0.68,inactive
TIGD5 (tigger transposable element derived 5),1,-0.85,-1.11,-0.92,-0.52,inactive
PRPF19 (pre-mRNA processing factor 19),1,-0.86,-0.71,-0.91,-0.97,inactive
OCLM (retired record),1,-0.06,-0.27,0.22,-0.15,inactive
GMPPB (GDP-mannose pyrophosphorylase B),1,-0.86,-1.01,-0.91,-0.65,inactive
AP1AR,1,0.61,0.83,0.28,0.73,inactive
HRH3 (histamine receptor H3),1,0.06,0.13,0.06,-0.02,inactive
PCNX2 (pecanex 2),1,1.27,1.45,1.39,0.97,inactive
PCBP2 (poly(rC) binding protein 2),1,-1.59,-1.55,-1.57,-1.64,inactive
TMEM132E (transmembrane protein 132E),1,-0.57,-0.74,-0.57,-0.4,inactive
ARL6 (ARF like GTPase 6),1,-0.57,-0.85,-0.26,-0.6,inactive
SPAM1 (sperm adhesion molecule 1),1,0.42,0.28,0.35,0.64,inactive
SPIN2A (spindlin family member 2A),1,1.88,1.88,1.82,1.96,inactive
MAP3K6 (mitogen-activated protein kinase kinase kinase 6),1,0.36,0.19,0.34,0.54,inactive
ZNF350 (zinc finger protein 350),1,0.05,-0.48,-0.24,0.88,inactive
NKAIN2 (sodium/potassium transporting ATPase interacting 2),1,0.51,0.26,0.47,0.79,inactive
"ANP32CP (acidic nuclear phosphoprotein 32 family member C, pseudogene)",1,-0.11,-0.07,-0.16,-0.11,inactive
FGF9 (fibroblast growth factor 9),1,0.41,0.33,0.58,0.32,inactive
LOC126772 (retired record),1,2.37,2.65,1.95,2.51,active
TANK (TRAF family member associated NFKB activator),1,0.34,0.23,0.4,0.41,inactive
RMDN3 (regulator of microtubule dynamics 3),1,0.94,0.69,0.82,1.32,inactive
RTN1 (reticulon 1),1,0.44,0.34,0.48,0.51,inactive
FKBP1A (FKBP prolyl isomerase 1A),1,0.79,1.17,0.84,0.36,inactive
H2BC3 (H2B clustered histone 3),1,-0.93,-0.8,-1.09,-0.91,inactive
DCUN1D5 (defective in cullin neddylation 1 domain containing 5),1,-0.48,-0.44,-0.6,-0.39,inactive
MED12 (mediator complex subunit 12),1,1.61,1.87,1.45,1.51,inactive
"ADGRE4P (adhesion G protein-coupled receptor E4, pseudogene)",1,0.38,0.05,0.58,0.52,inactive
ITGA2B (integrin subunit alpha 2b),1,-0.53,-0.62,-0.49,-0.48,inactive
TRIM21 (tripartite motif containing 21),1,0.31,0.34,0.21,0.38,inactive
FAHD2B (fumarylacetoacetate hydrolase domain containing 2B),1,0.02,0.15,-0.12,0.04,inactive
ADAMTS15 (ADAM metallopeptidase with thrombospondin type 1 motif 15),1,0.75,0.85,0.55,0.86,inactive
FST (follistatin),1,0.49,0.52,0.49,0.46,inactive
EIF3L (eukaryotic translation initiation factor 3 subunit L),1,1.87,2.42,1.44,1.74,inactive
UGT1A8 (UDP glucuronosyltransferase family 1 member A8),1,1.59,1.36,1.86,1.56,inactive
CES3 (carboxylesterase 3),1,-0.58,-0.4,-0.53,-0.82,inactive
DLG2 (discs large MAGUK scaffold protein 2),1,2.81,2.8,2.68,2.97,active
DLG2 (discs large MAGUK scaffold protein 2),2,-0.03,-0.48,0.37,0.01,inactive
IMPG2 (interphotoreceptor matrix proteoglycan 2),1,1.6,1.61,1.59,1.61,inactive

Reformatted: results already given.
gene symbol | reagent | mean z-score | z-score, replicate A | z-score, replicate B | z-score, replicate C | outcome
ITGA2B (integrin subunit alpha 2b) | 1 | -0.53 | -0.62 | -0.49 | -0.48 | inactive
TRIM21 (tripartite motif containing 21) | 1 | 0.31 | 0.34 | 0.21 | 0.38 | inactive
